## Positions that govern dimerization of the HIV-1 5' RNA

The 5' region of HIV-1 NL4-3 RNA (positions 1-437):
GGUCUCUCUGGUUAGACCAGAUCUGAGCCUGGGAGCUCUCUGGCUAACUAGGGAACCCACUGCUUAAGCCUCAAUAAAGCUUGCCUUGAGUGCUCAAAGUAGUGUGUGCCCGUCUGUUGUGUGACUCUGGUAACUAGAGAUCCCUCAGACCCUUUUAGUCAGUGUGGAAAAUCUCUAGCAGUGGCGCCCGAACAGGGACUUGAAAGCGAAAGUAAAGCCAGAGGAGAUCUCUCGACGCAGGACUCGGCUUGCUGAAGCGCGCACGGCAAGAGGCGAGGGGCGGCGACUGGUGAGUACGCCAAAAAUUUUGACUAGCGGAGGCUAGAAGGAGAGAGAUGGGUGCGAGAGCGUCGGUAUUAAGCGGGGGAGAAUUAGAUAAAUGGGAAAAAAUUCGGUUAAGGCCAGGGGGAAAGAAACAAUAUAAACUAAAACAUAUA

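Mutant RNA libraries with 1G, 2G or 3G starts, with or without cap, were folded at 37 °C for 30 min. High salt was 300 mM KCl and 5 mM MgCl2, low salt 40 mM KCl and 0.1 mM MgCl2; monomer and dimer were parted on a native gel. Kdimer compares mutation frequencies in monomer and dimer, corrected for sequencing errors.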

Scale: median log2 Kdimer over the changes at a position; positive = changes inhibit dimerization, negative = changes enhance it. One numbering serves 1G, 2G and 3G. A position is written with its base where known. The source gives no letters past position 437.

| # | position | domain | 1G capped high-salt | 2G uncapped low-salt | 1G uncapped low-salt |
|---|---|---|---|---|---|
| 1 | G43 | TAR | -0.18 | -0.15 | 0.00 |
| 2 | G280 | none | -0.07 | -0.66 | -0.62 |
| 3 | G294 | SL2 | -0.48 | -0.74 | -0.70 |
| 4 | 483 | none | -0.05 | -0.05 | 0.12 |
| 5 | C252 | SL1 | 3.11 | 3.12 | 3.21 |
| 6 | U295 | SL2 | -0.29 | -0.63 | -0.74 |
| 7 | G333 | AUG | 0.03 | -0.20 | -0.37 |
| 8 | A327 | none | 0.15 | 0.19 | 0.25 |
| 9 | C111 | U5 | -0.06 | 0.81 | 0.93 |
| 10 | C179 | PBS | -0.39 | -0.27 | -0.29 |
| 11 | U103 | PolyA | 0.14 | 0.49 | 0.18 |
| 12 | U82 | PolyA | 0.12 | 0.07 | -0.06 |
| 13 | G369 | none | 0.12 | 0.11 | 0.06 |
| 14 | G259 | SL1 | 4.39 | 3.82 | 4.27 |
| 15 | U323 | SL3 | 0.65 | 0.47 | 0.42 |
| 16 | U165 | PBS | -0.05 | -0.01 | -0.10 |
| 17 | G289 | SL2 | 0.72 | 0.23 | 0.14 |
| 18 | A133 | PBS | -0.01 | 0.26 | 0.21 |
| 19 | A101 | PolyA | 0.74 | 0.28 | 0.62 |
| 20 | G33 | TAR | 0.03 | -0.06 | -0.30 |
| 21 | 513 | none | 0.06 | -0.09 | 0.07 |
| 22 | 465 | none | -0.04 | 0.03 | 0.17 |
| 23 | U118 | none | 0.06 | -0.15 | -0.09 |
| 24 | A276 | SL1 | 3.03 | 3.03 | 2.99 |
| 25 | A293 | SL2 | -0.23 | -0.30 | -0.28 |
| 26 | A177 | PBS | 0.11 | -0.54 | -0.60 |
| 27 | A359 | none | 0.03 | 0.08 | 0.02 |
| 28 | 508 | none | 0.26 | 0.00 | -0.23 |
| 29 | 464 | none | 0.02 | 0.02 | 0.00 |
| 30 | C58 | PolyA | 0.45 | 0.17 | 0.35 |
| 31 | 487 | none | -0.09 | 0.00 | -0.14 |
| 32 | G331 | none | -0.05 | -0.09 | 0.01 |
| 33 | A431 | none | -0.01 | -0.05 | -0.01 |
| 34 | A324 | SL3 | 0.26 | 0.84 | 0.63 |
| 35 | U155 | PBS | 0.00 | -0.06 | 0.24 |
| 36 | A89 | PolyA | 0.43 | 0.39 | 0.42 |
| 37 | A239 | none | -0.41 | -0.32 | -0.31 |
| 38 | 479 | none | -0.14 | 0.00 | 0.02 |
| 39 | C219 | antiPAS | 0.22 | 0.55 | 0.45 |
| 40 | U107 | U5 | 0.27 | 0.66 | 0.61 |
| 41 | A211 | PBS | -0.24 | -0.50 | -0.30 |
| 42 | C93 | PolyA | 0.27 | -0.16 | -0.13 |
| 43 | 445 | none | 0.13 | 0.08 | 0.20 |
| 44 | C72 | PolyA | 0.18 | 0.13 | 0.02 |
| 45 | G406 | none | -0.13 | -0.04 | -0.04 |
| 46 | A304 | none | 0.04 | 0.12 | 0.11 |
| 47 | C300 | none | -0.42 | -0.53 | -0.47 |
| 48 | U249 | SL1 | 1.23 | 1.94 | 1.77 |
| 49 | U392 | none | 0.02 | 0.06 | -0.08 |
| 50 | 486 | none | -0.01 | 0.05 | 0.04 |
| 51 | G318 | SL3 | 0.06 | -0.07 | 0.02 |
| 52 | U337 | AUG | 0.20 | -0.01 | -0.28 |
| 53 | 452 | none | -0.13 | 0.13 | -0.06 |
| 54 | U341 | AUG | 0.10 | 0.35 | 0.04 |
| 55 | C236 | none | 2.55 | 1.61 | 1.41 |
| 56 | 490 | none | 0.03 | -0.02 | -0.02 |
| 57 | A169 | PBS | 0.01 | 0.05 | 0.06 |
| 58 | U250 | SL1 | 2.55 | 2.90 | 1.74 |
| 59 | A255 | SL1 | -0.24 | -0.32 | -0.47 |
| 60 | U436 | none | 0.06 | -0.12 | -0.04 |
| 61 | A140 | PBS | -0.12 | 0.31 | 0.26 |
| 62 | A296 | SL2 | 0.86 | 0.19 | 0.14 |
| 63 | U87 | PolyA | 0.16 | 0.29 | 0.39 |
| 64 | A433 | none | 0.08 | 0.07 | 0.00 |
| 65 | U94 | PolyA | 0.05 | 0.40 | 0.41 |
| 66 | 494 | none | -0.01 | 0.04 | 0.00 |

The measurements come from Ye et al. 2022 (doi:10.1038/s41594-022-00746-2).